Reference: ChEMBL document CHEMBL3797190, “Development of 3,5-Dinitrobenzylsulfanyl-1,3,4-oxadiazoles and Thiadiazoles as Selective Antitubercular Agents Active Against Replicating and Nonreplicating Mycobacterium tuberculosis” (J Med Chem, 2016)

Key:
[1] = system: Mycobacterium tuberculosis; details: Praha 4
[2] = system: Mycobacterium tuberculosis; details: 234/2005

Sequence: GENTAMICIN
- MIC>99 [1]: 0.5 µM
- MIC>99 [2]: 0.25 µM
